# Assay results published in PubChem BioAssay AID720542 (National Center for Advancing Translational Sciences (NCATS), 2013).
# The list shows a part of the results, in another mix than the full data. Some salts and complexes are drawn in separate pieces, as the source files them; their charges need not balance. The source made the active and inactive calls. Calls come from the whole dose curve; as a rule, active = well fitted inhibition curve with a large enough effect; inconclusive = small, poorly fitted or top-dose-only effect; inactive = no such curve, though single readings can be large or run the other way.
# System: Plasmodium falciparum AMA1 (3D7) - RON2 peptide interaction
# Experiment: qHTS for Inhibitors of AMA1-RON; Towards Development of Antimalarial Drug Lead: Primary Screen;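 note: 0% = vehicle wells and -100% = peptide control; nearly all actives have a fitted effect of over 45% in size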
# Conditions: AlphaScreen AMA1-biotinylated RON2 peptide binding; at 58.2 µM (top of the series) unless noted
row,SMILES,"activity change, negative = inhibition"
1,O=C(OC1CN2CCC1CC2)c1ccc([N+](=O)[O-])cc1 (configuration not stated),inactive: -7.43%
2,O=C(NCC1(N2CCCCC2)CCCCC1)c1cncc(Br)c1,inactive: 0.847%
3,COc1ccc2c(c1O)-c1c(O)c(OC)cc3c1[C@H](C2)[N+](C)(C)CC3.O=[N+]([O-])c1cc([N+](=O)[O-])c([O-])c([N+](=O)[O-])c1[O-],inactive: -15.9%
4,CN1CCC(Nc2cccc(F)c2)CC1,inactive: 8.49%
5,COc1ccc(C(c2nnnn2C2CCCC2)N2CCC(n3c(=O)[nH]c4ccccc43)CC2)cc1 (configuration not stated),inactive: -19.3%
6,Cc1ccc(C(=O)NCC2(N(C)C)CCCCC2)o1,inactive: 0%
7,CCCOc1ccc(C(=O)NCC2(N(C)C)CCCCC2)cc1OC,inactive: -2.3%
8,CC(C)(C)n1nnnc1C(c1ccccc1OC(F)(F)F)N1CCC(n2c(=O)[nH]c3ccccc32)CC1 (configuration not stated),inactive: -0.181%
9,O=C(NCC1(N2CCCCC2)CCCCC1)c1ccc(OC(F)F)cc1,inactive: 11%
10,CCN1CCC(Nc2ccc(Cl)cc2)CC1,inactive: -8.9%
11,N#CC1(Nc2ccccc2)CCN(CCc2ccccc2)CC1,inactive: 14.8%
12,O=c1[nH]c2ccccc2n1C1CCN(C(c2ccccc2OC(F)(F)F)c2nnnn2C2CCCC2)CC1 (configuration not stated),inactive: 15.5%
13,O=C(NCC1(N2CCCCC2)CCCCC1)c1cccc([N+](=O)[O-])c1,inactive: 4.03%
14,CSc1ccc(C(=O)NCC2(N3CCOCC3)CCCCC2)cc1,inactive: -10.9%
15,O=[N+]([O-])c1cc([N+](=O)[O-])c(NCC2CCS(=O)(=O)C2)c([N+](=O)[O-])c1 (configuration not stated),inactive: 9.84%
16,O=C(NCC1(N2CCCCC2)CCCCC1)c1cccc(C(F)(F)F)c1,inactive: 5.85%
17,COc1cc(C(=O)NCC2(N3CCCCC3)CCCCC2)ccc1OC(F)F,inactive: 17.6%
18,O=C(NCC1(N2CCOCC2)CCCCC1)c1cc(=O)[nH]c2ccccc12,inactive: -0.527%
19,CCCCn1nnnc1C(c1cccc2ccccc12)N1CCC(n2c(=O)[nH]c3ccccc32)CC1 (configuration not stated),inactive: -20.2%
20,CN1CCN(CCOC(=O)C(O)(c2ccccc2)c2ccccc2)CC1,inactive: -1.58%
21,COc1ccc(NC2CCN(C(=O)OC(C)(C)C)CC2)cc1,inactive: -14.5%
22,CC(C)c1ccc(C(=O)NCC2(N3CCOCC3)CCCCC2)cc1,inactive: -1.69%
